These results are taken from patent US6623741B1, “Methods and compositions for inhibition of membrane fusion-associated events including RSV transmission” (Trimeris, Inc., priority 2000, dated 2003).

In this test the test system is HIV-1LAI. The following applies: FIG. 1 legend. How it is done:
Cell Free Virus Infection Assay:
Synthetic peptides were incubated at 37° C. with either 247 TCID50 (for experiment depicted in FIG. 2), or 62 TCID50 (for experiment depicted in FIG. 3) units of HIV-1LAI virus or 25 TCID50 units of HIV-2^NIHZ and CEM CD4^+ cells at peptide concentrations of 0, 0.04, 0.4, 4.0, and 40 μg/ml for 7 days. The resulting reverse transcriptase (RT) activity in counts per minute was determined using the assay described, below, in Section 6.1.5. See, Reed, L. J. et al., 1938, Am. J. Hyg. 27: 493-497 for an explanation of TCID50 calculations.
Reverse Transcriptase Assay:
The micro-reverse transcriptase (RT) assay was adapted from Goff et al. (Goff, S. et al., 1981, J. Virol. 38:239-248) and Willey et al. (Willey, R. et al., 1988, J. Virol. 62:139-147). Supernatants from virus/cell cultures are adjusted to 1% Triton-X100. A 10 μl sample of supernatant was added to 50 μl of RT cocktail in a 96-well U-bottom microtitre plate and the samples incubated at 37° C. for 90 min. The RT cocktail contained 75 mM KCl, 2 mM dithiothreitol, 5 mM MgCl2, 5 μg/ml poly A (Pharmacia, cat. No. 27-4110-01), 0.25 units/ml oligo dT (Pharmacia, cat. No. 27-7858-01), 0.05% NP40, 50 mM Tris-HCl, pH 7.8, 0.5 μM non-radioactive dTTP, and 10 μCi/ml ^32P-dTTP (Amersham, cat. No. PB. 10167). […]

On to `CC[C@H](C)[C@H](NC(=O)[C@H](C)NC(=O)[C@@H](NC(=O)[C@@H](NC(=O)[C@H](CCCNC(=N)N)NC(=O)[C@H](C)NC(=O)[C@H](CCC(N)=O)NC(=O)[C@H](CC(C)C)NC(=O)[C@H](CC(N)=O)NC(=O)[C@H](CCCCN)NC(=O)[C@@H](NC(=O)CNC(=O)[C@H](Cc1c[nH]c2ccccc12)NC(=O)[C@@H](NC(=O)[C@@H](NC(=O)[C@H](CC(C)C)NC(=O)[C@H](CCCNC(=N)N)NC(=O)[C@H](CC(C)C)NC(=O)[C@H](CCSC)NC(=O)[C@H](CCC(=O)O)NC(=O)[C@H](CCC(N)=O)NC(=O)[C@H](CCC(N)=O)NC(=O)[C@H](CCCNC(=N)N)NC(=O)[C@H](CCCCN)NC(=O)[C@@H](NC(=O)[C@@H](NC(=O)[C@H](CC(=O)O)NC(=O)[C@H](CC(C)C)NC(=O)[C@H](CC(C)C)NC(=O)[C@H](CCC(N)=O)NC(=O)[C@H](CCC(N)=O)NC(C)=O)C(C)C)C(C)C)[C@@H](C)O)C(C)C)[C@@H](C)O)C(C)C)[C@@H](C)O)C(=O)N[C@@H](CCC(=O)O)C(=O)N[C@@H](CCCCN)C(=O)N[C@@H](Cc1ccc(O)cc1)C(=O)N[C@@H](CC(C)C)C(=O)N[C@@H](CCCCN)C(=O)N[C@@H](CC(=O)O)C(=O)N[C@@H](CCC(N)=O)C(N)=O` [DP-118], for which the “inhibition of HIV-1 cell free virus infection (in words)” value is given as “inhibits HIV-1 cell free virus infection”.

As for `CC[C@H](C)[C@H](NC(=O)CNC(=O)[C@H](Cc1c[nH]c2ccccc12)NC(=O)[C@@H](NC(=O)[C@@H](NC(=O)[C@H](CC(C)C)NC(=O)[C@H](CCC(N)=O)NC(=O)[C@H](CC(C)C)NC(=O)[C@H](CC(C)C)NC(=O)[C@H](Cc1c[nH]cn1)NC(=O)[C@H](CCC(N)=O)NC(=O)[C@H](CCC(N)=O)NC(=O)[C@H](C)NC(=O)[C@H](CCC(=O)O)NC(=O)[C@@H](NC(=O)[C@H](C)NC(=O)[C@H](CCCNC(=N)N)NC(=O)[C@H](CC(C)C)NC(=O)[C@H](CC(C)C)NC(=O)[C@H](CC(N)=O)NC(=O)[C@H](CC(N)=O)NC(=O)CNC(=O)CNC(=O)[C@H](CS)NC(C)=O)[C@@H](C)CC)[C@@H](C)O)C(C)C)C(=O)N[C@@H](CCCCN)C(=O)N[C@@H](CCC(N)=O)C(=O)N[C@@H](CC(C)C)C(=O)N[C@@H](CCC(N)=O)C(=O)N[C@@H](C)C(=O)N[C@@H](CCCNC(=N)N)C(=O)N[C@H](C(=O)N[C@@H](CC(C)C)C(=O)N[C@@H](C)C(=O)N[C@H](C(=O)N[C@@H](CCC(=O)O)C(=O)N[C@@H](CCCNC(=N)N)C(=O)N[C@@H](Cc1ccc(O)cc1)C(=O)N[C@@H](CC(C)C)C(=O)N[C@@H](CCCCN)C(=O)N[C@@H](CC(=O)O)C(=O)N[C@@H](CCC(N)=O)C(N)=O)C(C)C)[C@@H](C)CC` [DP-125], the “inhibition of HIV-1 cell free virus infection (in words)” value is “inhibits HIV-1 cell free virus infection”.
